Test results as given in patent US20240336610A1, “3CL PROTEASE SMALL-MOLECULE INHIBITOR FOR TREATING OR PREVENTING CORONAVIRUS INFECTION, AND USE THEREOF” (THE GLOBAL HEALTH DRUG DISCOVERY INSTITUTE, priority 2021, published 2024).
Structures were worked out from names or drawings and are uncertain.

Assays:
[1] = target: SARS-CoV-2 main protease (3CLpro) (Severe acute respiratory syndrome coronavirus 2 (2019-nCoV) (SARS-CoV-2), UniProt P0DTD1); assay: Enzyme activity test; assay type: biochemical; settings: 200 nM recombinant SARS-CoV-2 main protease, 15 μM fluorescent substrate, pH 7.3
SARS-CoV-2 = assay: SARS-CoV-2/Hela-ACE test; settings: read-out: SAR-CoV-2 EC50; Hela-ACE cells infected with SARS-CoV-2 (USA-WA1/2020), 48 hours

`CC(C)(C)OC(=O)N[C@H](C(=O)N1C[C@H]2[C@@H]([C@H]1C(=O)NC(C#N)c1cncc(C(F)(F)F)c1)C2(C)C)C(C)(C)C` (some centres unmarked) gave an IC50 [1] of 27 nM and an EC50 (SARS-CoV-2) of 547 nM.
